Test results from ChEMBL document CHEMBL1150695, “The synthesis of SO-3, a conopeptide with high analgesic activity derived from Conus striatus” (2003).

What was measured:
[1] = tested on: Carassius carassius; test: Toxicity against Carassius carassius assessed as survivality at 0.5 to 8.5 ug/gold fish, intramuscular; conditions: in vivo, im
[2] = tested on: Mus musculus; test: Analgesic activity in mouse assessed as decrease in acetic acid-induced twisting motion at 0.7 ug/kg, intracerebral
[3] = tested on: Rattus norvegicus; test: Analgesic activity in rat assessed as increase of threshold for tail withdrawal at 1.2 ug/kg, by mechanical stimulus test
[4] = tested on: Rattus norvegicus; test: Analgesic activity in rat assessed as increase of threshold for tail withdrawal at 2 ug/kg, intracerebrally by mechanical stimulus test
[5] = tested on: Mus musculus; test: Analgesic activity in intracerebrally mouse assessed as reaction time required to elicit jumping or hind paw licking by hot plate method
[6] = tested on: Mus musculus; test: Analgesic activity in mouse assessed as reaction time required for tail flicking at 0.7 ug/kg, intracerebrally after 1 hr by light radiation method
[7] = tested on: Mus musculus; test: Analgesic activity in mouse assessed as reaction time required for tail flicking at 1.2 ug/kg, intracerebrally after 1 hr by light radiation method
[8] = tested on: Mus musculus; test: Analgesic activity in mouse assessed as reaction time required for tail flicking at 2.7 ug/kg, intracerebrally after 1 hr by light radiation method
[9] = tested on: Mus musculus; test: Analgesic activity in mouse assessed as reaction time required for tail flicking at 3.2 ug/kg, intracerebrally after 1 hr by light radiation method
[10] = tested on: Mus musculus; test: Analgesic activity in mouse assessed as reaction time required for tail flicking at 1.7 ug/kg, intracerebrally after 4 hrs by light radiation method
[11] = tested on: Mus musculus; test: Analgesic activity in mouse assessed as reaction time required for tail flicking at 2.2 ug/kg, intracerebrally after 4 hrs by light radiation method
[12] = tested on: Mus musculus; test: Analgesic activity in mouse assessed as reaction time required for tail flicking at 2.7 ug/kg, intracerebrally after 4 hrs by light radiation method
[13] = tested on: Mus musculus; test: Analgesic activity in mouse assessed as reaction time required for tail flicking at 0.7 ug/kg, intracerebrally after 3.3 hrs by light radiation method
[14] = tested on: Mus musculus; test: Analgesic activity in mouse assessed as reaction time required for tail flicking at 1.2 ug/kg, intracerebrally after 2.5 hrs by light radiation method
[15] = tested on: Mus musculus; test: Analgesic activity in mouse assessed as reaction time required for tail flicking at 1.7 ug/kg, intracerebrally after 2.5 hrs by light radiation method
[16] = tested on: Mus musculus; test: Analgesic activity in mouse assessed as reaction time required for tail flicking at 2.2 ug/kg, intracerebrally after 2.5 hrs by light radiation method
[17] = tested on: Mus musculus; test: Analgesic activity in mouse assessed as reaction time required for tail flicking at 2.7 ug/kg, intracerebrally after 3.3 hrs by light radiation method
[18] = tested on: Mus musculus; test: Analgesic activity in mouse assessed as reaction time required for tail flicking at 3.2 ug/kg, intracerebrally after 2.5 hrs by light radiation method
[19] = tested on: Mus musculus; test: Analgesic activity in mouse assessed as reaction time required for tail flicking at 3.2 ug/kg, intracerebrally after 3.3 hrs by light radiation method
[20] = tested on: Rattus norvegicus; test: Analgesic activity in rat assessed as reaction time required for tail flicking response at 2 ug/kg, intracerebrally after 1 hr by tail-flicking reaction method
[21] = tested on: Mus musculus; test: Analgesic activity in mouse assessed as reaction time required to elicit jumping or hind paw licking at 3 ug/kg, intracerebrally after 4 hrs by hot plate method
[22] = tested on: Rattus norvegicus; test: Analgesic activity in rat assessed as reaction time required for tail flicking response at 2 ug/kg, intracerebrally after 2 hrs by tail-flicking reaction method
[23] = tested on: Rattus norvegicus; test: Analgesic activity in rat assessed as reaction time required for tail flicking response at 2 ug/kg, intracerebrally after 3 hrs by tail-flicking reaction method
[24] = tested on: Rattus norvegicus; test: Analgesic activity in rat assessed as reaction time required for tail flicking response at 2 ug/kg, intracerebrally after 4 hrs by tail-flicking reaction method
[25] = tested on: Mus musculus; test: Analgesic activity in mouse assessed as reaction time required to elicit jumping or hind paw licking at 1 ug/kg, intracerebrally after 0.5 hrs by hot plate method
[26] = tested on: Mus musculus; test: Analgesic activity in mouse assessed as reaction time required to elicit jumping or hind paw licking at 1 ug/kg, intracerebrally after 1.5 hrs by hot plate method
[27] = tested on: Mus musculus; test: Analgesic activity in mouse assessed as reaction time required to elicit jumping or hind paw licking at 3 ug/kg, intracerebrally after 0.5 hrs by hot plate method
[28] = tested on: Mus musculus; test: Analgesic activity in mouse assessed as reaction time required to elicit jumping or hind paw licking at 3 ug/kg, intracerebrally after 2.5 hrs by hot plate method
[29] = tested on: Rattus norvegicus; test: Analgesic activity in rat assessed as reaction time required for tail flicking response at 1.2 ug/kg, intracerebrally after 2 hrs by tail-flicking reaction method
[30] = tested on: Mus musculus; test: Analgesic activity in mouse assessed as reaction time required to elicit jumping or hind paw licking at 0.5 ug/kg, intracerebrally after 0.5 hrs by hot plate method
[31] = tested on: Mus musculus; test: Analgesic activity in mouse assessed as reaction time required to elicit jumping or hind paw licking at 0.5 ug/kg, intracerebrally after 2.5 hrs by hot plate method
[32] = tested on: Mus musculus; test: Analgesic activity in mouse assessed as reaction time required to elicit jumping or hind paw licking at 1.5 ug/kg, intracerebrally after 0.5 hrs by hot plate method
[33] = tested on: Mus musculus; test: Analgesic activity in mouse assessed as reaction time required to elicit jumping or hind paw licking at 1.5 ug/kg, intracerebrally after 1.5 hrs by hot plate method

Q: Which results are given for `CC[C@H](C)[C@@H]1NC(=O)[C@H](CCCNC(=N)N)NC(=O)[C@H](CO)NC(=O)[C@@H]2CSSC[C@@H]3NC(=O)[C@H](CO)NC(=O)CNC(=O)[C@H]([C@H](C)O)NC(=O)[C@H](CSSC[C@H](N)C(=O)N[C@@H](CCCCN)C(=O)N[C@@H](C)C(=O)N[C@@H](C)C(=O)NCC(=O)N[C@@H](CCCCN)C(=O)N4CCC[C@H]4C(=O)N2)NC(=O)[C@H](CSSC[C@@H](C(N)=O)NC(=O)[C@H](CCCCN)NC(=O)CNC(=O)[C@H](CO)NC(=O)[C@H](CCCNC(=N)N)NC3=O)NC(=O)[C@H](CC(N)=O)NC(=O)[C@H](Cc2ccc(O)cc2)NC(=O)[C@H](C)NC1=O`?
A: Activity [1]: Non-toxic; Activity [2]: 9.6; Activity [3]: 100 g; Activity [4]: 150 g; EC50 [5]: 0.75 µg/kg; Activity [6]: 12.1 s; Activity [7]: 10.5 s; Activity [8]: 14.2 s; Activity [9]: 11.2 s; Activity [10]: 10.4 s; Activity [11]: 7.3 s; Activity [12]: 8.8 s; Activity [13]: 9.8 s; Activity [14]: 8.5 s; Activity [15]: 12.9 s; Activity [16]: 12.4 s; Activity [17]: 10.2 s; Activity [18]: 11.8 s; Activity [19]: 11.1 s; Activity [20]: 3.2 s; Activity [21]: 51.8 s; Activity [22]: 4 s; Activity [23]: 4.5 s; Activity [24]: 3.2 s; Activity [25]: 43 s; Activity [26]: 16.2 s; Activity [27]: > 60 s; Activity [28]: 55.8 s; Activity [29]: 3.6 s; Activity [30]: 23.4 s; Activity [31]: 15.8 s; Activity [32]: 49.6 s; Activity [33]: 39.6 s
